Experimental data as given in the supplement of paper PMC9931576.
Human monoclonal antibodies against the spike receptor-binding domain (heavy:light variable regions). IC50 against pseudoviruses bearing the spike of naturally observed variants; lower = stronger; >10 µg/ml means not reached at the top dose. No active / inactive call. The stated detection limit is 0.0005 µg/ml; values near or below 0.001 µg/ml lie at the floor of the assay.

B1: BD55-6218 (protein)
chain 1: EVQLVETGGGLVKPGRSLRLSCSASGFSFGDYAMSWFRQAPGKGLEWVGFIRSAAYGATPEYAPSVRGRFALSRDDSKSIAYLQMDSLKTEDTAVYYCSREGRLPSYYYYGMDVWGQGTTVTVSS
chain 2: DIQLTQSPSSLSASVGDRVTITCRASQSISFYVNWYQQNPGKAPKFLIYAASTLQTGVPSRFSGSGSGTDFTLTISSLQPEDFATYYCQQSYSIPLTFGGGTKVEIK
B2: BD55-6222 (protein)
chain 1: EVQLVASGGGLVQPGGSLRLSCAASGFKFTAYDMHWVRQATGKGLEWVASIDTAGDTYYADSVRGRFTISRENAKNSFYLQMKSLRAGDTAVYYCARDYPWHDLLAGESSSFGMDVWGQGITVTVSS
chain 2: EIVLTQSPATLSLSPGEGATLSCRASQSVRGSLIWYQQRPGQAPRLLIYDASNRATGIPARFSGSGSGTDFTLTISSLEPEDFAVYFCQQRSNWPLTFGQGTKVEIK
B3: BD55-6223 (protein)
chain 1: EEHLVESGGGLVRPGGSLRLSCAASGFTFSHYAMHWVRQAPGKGLEYVSSISSDGGLTFYANSVKGRFTISRDNSKNTLYLQMGSLRGEDMALYYCARETRDHIVVVLDFWGQGTLVTVSS
chain 2: DIQMTQSPSSLSASVGDRVSITCRASQSISRYLNWYQQKPGKAPILLIFAASSLQRGVPSRFSGSGSGTDFTLTISSLQPEDFATYYCQQSYINPEYTFGQGTKLEIK
B4: BD55-6229 (protein)
chain 1: QVQLQESGPGLVKPSETLSLTCTVSGVSVSSFYWSWLRQPPGKGLEWIGDIDNSGNTNYNPSLRSRVSISIDTSKNQFSLRLSSVTAADTAMYHCARYWHTSGYYWLDPWGQGTLVTVSS
chain 2: DIQMTQSPSSLSASVGDRVSLTCRASQTIGNYLNWYQQRPGKAPNLLIYAASTLQSGVPSRFSGSGSGADFTLTITSLQPEDFATYFCQQSYSTPPVTFGGGTKVE
B5: BD55-6232 (protein)
chain 1: EVQLVESGGGLVKPGRSLRLSCTGSGFTFGDYSLSWFRQAPGKGLEWVGFIRNPAYGGTTEYAPSVQGRVTISRDDSNSVAYLQMNSLNTEDTAVYYCTREGIYGYFYYYAMDVWGQGTTVTVSS
chain 2: DIQMTQSPSSLSASVGDRVTITCRASQSISFYVNWYQQKPGKAPKILMYEVSSLQSGVPSRFSGSGSGTDFTLTISSLQPEDFATYYCQQSYSIPLTFGGGTKVEI
B6: BD55-6233 (protein)
chain 1: QVQLQESGPGLVKPSETLPLTCSVSGASISTGGGHWGWIRQPPGKELEWIGSIYDGGRTYYNPSLKGRVTISVDTSRNQFSLKLSSVTAADTAVYYCARTAWFGELDDYWGQGTLVTVSS
chain 2: QSVLTQPPSASGTPGQRVSISCSGSSSNIGTNYVYWYQQFPGTAPKLLIYGSNRRPSGVPDRFSGSKSGTSASLAISGLRSEDEAEYYCAAWDDSLQVVFGGGTKLTVL
B7: BD55-6241 (protein)
chain 1: EVQLVQSGAEVKKPGESLKISCKAYGYSFSTDWIAWVRQMPGKGLEWMGIIYPGDSETRYNPSFQGQVTISADESISTAYLQWSSLKASDTAIYYCARQTTHHWGFGGSYRYGFWGQGTLVTVSS
chain 2: QSVLTQPPSVSAAPGQRVTISCSGSGSNIGINYVSWYQQLPGTAPKLIIYDNHDRPSGIPDRFSGSKSGTSATLDITRLQTGDEANYYCATWDTNLSAVLFGGGTKLTVL
B8: BD55-6243 (protein)
chain 1: EVQLLESGGGLVQPGGSLRLSCAASGFTFSDYAMSWVRQPPGKGLEWVSTISGSGASTYYIDSVKGRFTISRDSSKNTLYLQLNSLRAEDTAVYFCAKEMAFYDILTDSNWFDPWGQGTLVTVSS
chain 2: SYELTQPPSVSVSPGQTARITCSGDALPKKYTYWYQQKSGQAPVLVIYEDTKRPSGIPERFSGSTSGTMATLTIRGAQVEDEADYYCYSTDSSSYHRRVFGGGTKLTVL
B9: BD55-1199 (protein)
chain 1: QLLLQESGPGLVKPSETLSLTCTVSGDSFSDSIYYWGWIRQPPGKGLEWLGTIYYYGSTYYNPSLKSRVSISVDTSKNRFSLNLNSVTAADTAVYYCAREMEQLGHYYGMDVWGQGTTVTVSS
chain 2: SYVLTQPPSVSVAPGKTARITCGGNNIGSKSVHWYQQKPGQAPVLVIFYDSDRPSGIPERFSGSNSGNTATLTISRVEAGDEADYYCQVCDSSRDHRVFGGGTKLTVL
B10: BD55-6250 (protein)
chain 1: QVQLVESGGGVVQPGRSLRLSCAASGFTFSTYGMHWVRQAPGKGLEWVALIWNDGSKTYYIDSVKGRFTISRDNSKNTVYLQMNSLRAEDTAVYYCARDSLCSGGSCYFDYNWFDFWGQGTLVTVSS
chain 2: EIVLTQSPATLSLSPGERATLSCRASQSVSRHLAWYQQKPGQAPRLLIYDASNRANGVPARFSGSGSGTDFTLTISSLEPEDFAVYYCQQRYTWPPAYTFGQGTKLQIK
B11: BD55-6254 (protein)
chain 1: QLHLQESGPGLVKPSETLSLTCTVSGGSINTRGSYWGWIRQPPGKGLEWIGSIYYSGSTYSNPSLESRLTMSVDVSKNQFSLKLSSVIAADTAVYYCVRPFVRDYFSAHTHWFDPWGQGALVTVSS
chain 2: EIVLTQSPGTLSLSPGERATLSCRASQSVSDNCLVWYQQKPGQAPRLLIYGASSRATGIPERFSGRGSGTEFTLTINRLEPEDFAVYYCQQYGNSPETFGQGTKVEIK
B12: BD55-6255 (protein)
chain 1: QVTLKESGPVLVKPTETLTLTCTVSGFSLSNAKMGVSWIRQPPGKALEWLVNTFSDDEFSYNPSLTSRLTVSRDTSKSQVVLTMTNVDPVDTATYYCARIVGYYYYYMDVWGKGTAVTVSS
chain 2: DIQMTQSPSSLSASVGDRVTLTCRASQNIGNYLNWYQHIPGKAPKLLIYAASSLQSGVPSRFSGSGSGTDFTLTISSLQPEDFSTYYCQQSYTTPTWTFGPGTKVEVK

Each binder was assayed against SARS-CoV-2 Omicron BA.1 spike pseudovirus (assay: pseudovirus neutralization IC50; higher = weaker neutralization).
Method: (§1)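 Single-round VSV luciferase pseudovirus mixed with antibody dilutions for 1 h and put on Huh-7 cells for about a day; IC50 from the dose curve.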
For B1, the “pseudovirus neutralization IC50” value was > 10 µg/mL.
B2 was tested, and the “pseudovirus neutralization IC50” value was > 10 µg/mL.
For B3, the “pseudovirus neutralization IC50” value was > 10 µg/mL.
For B4, the “pseudovirus neutralization IC50” value was > 10 µg/mL.
With B5 the “pseudovirus neutralization IC50” value was > 10 µg/mL.
In the case of B6, the “pseudovirus neutralization IC50” value is reported as > 10 µg/mL.
B7 was tested, and the “pseudovirus neutralization IC50” value was > 10 µg/mL.
In the case of B8, the “pseudovirus neutralization IC50” value is reported as > 10 µg/mL.
In the case of B9, the “pseudovirus neutralization IC50” value is reported as > 10 µg/mL.
With B10 the “pseudovirus neutralization IC50” value was > 10 µg/mL.
For B11, the “pseudovirus neutralization IC50” value was > 10 µg/mL.
With B12 the “pseudovirus neutralization IC50” value was > 10 µg/mL.

Each binder was assayed against SARS-CoV-2 Omicron BA.2 spike pseudovirus in the same assay as above.
Method: as §1
With B1 the “pseudovirus neutralization IC50” value was > 10 µg/mL.
With B2 the “pseudovirus neutralization IC50” value was > 10 µg/mL.
For B3, the “pseudovirus neutralization IC50” value was > 10 µg/mL.
For B4, the “pseudovirus neutralization IC50” value was > 10 µg/mL.
B5 was tested, and the “pseudovirus neutralization IC50” value was > 10 µg/mL.
B6 was tested, and the “pseudovirus neutralization IC50” value was > 10 µg/mL.
In the case of B7, the “pseudovirus neutralization IC50” value is reported as > 10 µg/mL.
B8 was tested, and the “pseudovirus neutralization IC50” value was > 10 µg/mL.
For B9, the “pseudovirus neutralization IC50” value was > 10 µg/mL.
In the case of B10, the “pseudovirus neutralization IC50” value is reported as > 10 µg/mL.
In the case of B11, the “pseudovirus neutralization IC50” value is reported as > 10 µg/mL.
In the case of B12, the “pseudovirus neutralization IC50” value is reported as > 10 µg/mL.

What follows are binders tested against SARS-CoV-2 Omicron BA.2.75 spike pseudovirus in the same assay as above.
Method: as §1
B1 was tested, and the “pseudovirus neutralization IC50” value was > 10 µg/mL.
For B2, the “pseudovirus neutralization IC50” value was > 10 µg/mL.
For B3, the “pseudovirus neutralization IC50” value was > 10 µg/mL.
With B4 the “pseudovirus neutralization IC50” value was > 10 µg/mL.
In the case of B5, the “pseudovirus neutralization IC50” value is reported as > 10 µg/mL.
B6 was tested, and the “pseudovirus neutralization IC50” value was > 10 µg/mL.
For B7, the “pseudovirus neutralization IC50” value was > 10 µg/mL.
B8 was tested, and the “pseudovirus neutralization IC50” value was > 10 µg/mL.
For B9, the “pseudovirus neutralization IC50” value was > 10 µg/mL.
In the case of B10, the “pseudovirus neutralization IC50” value is reported as > 10 µg/mL.
In the case of B11, the “pseudovirus neutralization IC50” value is reported as > 10 µg/mL.
B12 was tested, and the “pseudovirus neutralization IC50” value was > 10 µg/mL.

These binders were tested against SARS-CoV-2 Omicron BA.5 spike pseudovirus in the same assay as above.
Method: as §1
B1 was tested, and the “pseudovirus neutralization IC50” value was > 10 µg/mL.
B2 was tested, and the “pseudovirus neutralization IC50” value was > 10 µg/mL.
With B3 the “pseudovirus neutralization IC50” value was > 10 µg/mL.
With B4 the “pseudovirus neutralization IC50” value was > 10 µg/mL.
In the case of B5, the “pseudovirus neutralization IC50” value is reported as > 10 µg/mL.
For B6, the “pseudovirus neutralization IC50” value was > 10 µg/mL.
In the case of B7, the “pseudovirus neutralization IC50” value is reported as > 10 µg/mL.
For B8, the “pseudovirus neutralization IC50” value was > 10 µg/mL.
B9 was tested, and the “pseudovirus neutralization IC50” value was > 10 µg/mL.
With B10 the “pseudovirus neutralization IC50” value was > 10 µg/mL.
For B11, the “pseudovirus neutralization IC50” value was > 10 µg/mL.
B12 was tested, and the “pseudovirus neutralization IC50” value was > 10 µg/mL.

What follows are binders tested against SARS-CoV-2 Omicron BQ.1.1 spike pseudovirus in the same assay as above.
Method: as §1
B1 was tested, and the “pseudovirus neutralization IC50” value was > 10 µg/mL.
With B2 the “pseudovirus neutralization IC50” value was > 10 µg/mL.
With B3 the “pseudovirus neutralization IC50” value was > 10 µg/mL.
In the case of B4, the “pseudovirus neutralization IC50” value is reported as > 10 µg/mL.
In the case of B5, the “pseudovirus neutralization IC50” value is reported as > 10 µg/mL.
B6 was tested, and the “pseudovirus neutralization IC50” value was > 10 µg/mL.
For B7, the “pseudovirus neutralization IC50” value was > 10 µg/mL.
B8 was tested, and the “pseudovirus neutralization IC50” value was > 10 µg/mL.
With B9 the “pseudovirus neutralization IC50” value was > 10 µg/mL.
B10 was tested, and the “pseudovirus neutralization IC50” value was > 10 µg/mL.
For B11, the “pseudovirus neutralization IC50” value was > 10 µg/mL.
In the case of B12, the “pseudovirus neutralization IC50” value is reported as > 10 µg/mL.

Each binder was assayed against SARS-CoV-2 Omicron XBB spike pseudovirus in the same assay as above.
Method: as §1
With B1 the “pseudovirus neutralization IC50” value was > 10 µg/mL.
With B2 the “pseudovirus neutralization IC50” value was > 10 µg/mL.
B3 was tested, and the “pseudovirus neutralization IC50” value was > 10 µg/mL.
In the case of B4, the “pseudovirus neutralization IC50” value is reported as > 10 µg/mL.
B5 was tested, and the “pseudovirus neutralization IC50” value was > 10 µg/mL.
For B6, the “pseudovirus neutralization IC50” value was > 10 µg/mL.
For B7, the “pseudovirus neutralization IC50” value was > 10 µg/mL.
For B8, the “pseudovirus neutralization IC50” value was > 10 µg/mL.
With B9 the “pseudovirus neutralization IC50” value was > 10 µg/mL.
For B10, the “pseudovirus neutralization IC50” value was > 10 µg/mL.
For B11, the “pseudovirus neutralization IC50” value was > 10 µg/mL.
In the case of B12, the “pseudovirus neutralization IC50” value is reported as > 10 µg/mL.

These binders were tested against SARS-CoV-2 early D614G spike pseudovirus in the same assay as above.
Method: as §1
For B1, the “pseudovirus neutralization IC50” value was > 10 µg/mL.
For B2, the “pseudovirus neutralization IC50” value was 0.355 µg/mL.
B3 was tested, and the “pseudovirus neutralization IC50” value was > 10 µg/mL.
With B4 the “pseudovirus neutralization IC50” value was 0.507 µg/mL.
In the case of B5, the “pseudovirus neutralization IC50” value is reported as > 10 µg/mL.
B6 was tested, and the “pseudovirus neutralization IC50” value was > 10 µg/mL.
B7 was tested, and the “pseudovirus neutralization IC50” value was 0.00492 µg/mL.
In the case of B8, the “pseudovirus neutralization IC50” value is reported as 0.263 µg/mL.
B9 was tested, and the “pseudovirus neutralization IC50” value was 1.79 µg/mL.
B10 was tested, and the “pseudovirus neutralization IC50” value was > 10 µg/mL.
In the case of B11, the “pseudovirus neutralization IC50” value is reported as > 10 µg/mL.
For B12, the “pseudovirus neutralization IC50” value was > 10 µg/mL.
